Data published in PubChem BioAssay AID1903 (Southern Research Specialized Biocontainment Screening …, 2009).
This is one part of the list. Potency and affinity values are given separately. Activity calls are given as the source filed them. How the calls were made is not given here.

By UniProt entry, the sequences of proteins in these tests, tags left out.
UniProt P03070, whole entry, looked up: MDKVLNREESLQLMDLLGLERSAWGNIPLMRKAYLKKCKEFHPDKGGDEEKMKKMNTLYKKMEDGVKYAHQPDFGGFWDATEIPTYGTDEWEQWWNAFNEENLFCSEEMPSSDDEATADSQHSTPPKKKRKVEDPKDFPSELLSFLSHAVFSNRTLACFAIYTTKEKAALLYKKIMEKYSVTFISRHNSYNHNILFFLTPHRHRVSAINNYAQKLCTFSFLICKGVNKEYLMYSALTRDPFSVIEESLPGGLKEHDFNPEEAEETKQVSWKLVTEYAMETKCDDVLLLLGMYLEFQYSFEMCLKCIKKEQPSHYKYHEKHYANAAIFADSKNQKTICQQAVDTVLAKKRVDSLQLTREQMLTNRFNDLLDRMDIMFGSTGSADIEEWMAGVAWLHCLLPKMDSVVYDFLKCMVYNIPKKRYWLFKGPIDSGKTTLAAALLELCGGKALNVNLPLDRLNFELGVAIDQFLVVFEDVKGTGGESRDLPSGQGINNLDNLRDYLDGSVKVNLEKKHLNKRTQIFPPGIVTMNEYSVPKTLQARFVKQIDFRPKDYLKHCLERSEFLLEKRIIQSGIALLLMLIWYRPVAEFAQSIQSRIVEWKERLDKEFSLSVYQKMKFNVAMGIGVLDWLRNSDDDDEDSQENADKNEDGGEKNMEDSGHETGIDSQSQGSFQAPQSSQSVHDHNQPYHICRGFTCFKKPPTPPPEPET

biological target: Large T antigen (Simian virus 40) (UniProt P03070); experiment: TAg ATPase/helicase activity blockers – biochemical (AID 1903); conditions: SV40 large T antigen ATPase/helicase inhibition assay; at 20 µM; active compounds read high

Question: How did the inhibition turn out when O=C(NC1CCS(=O)(=O)C1)NP(=S)(Oc1ccccc1)Oc1ccccc1 (centres undefined) was run?
Answer: inactive: -0.43%

Question: CCNC(=S)/N=C(\N)N[N+](=O)[O-] was tested. Which inhibition did it give?
Answer: inactive: 11.9%

Question: With CCOC(=O)NC(Sc1ccccc1)C(Cl)(Cl)Cl (centres undefined) as the molecule, how does the inhibition read?
Answer: inactive: 6.49%

Question: Which inhibition does the source give for Cc1ccc(NP(=O)(Oc2cccc(C)c2)Oc2cccc(C)c2)nc1 here?
Answer: inactive: 4.44%

Question: Which inhibition does the source give for c1ccc(-c2nn[nH]n2)c(-c2nn[nH]n2)c1 here?
Answer: inactive: 6.14%

Question: Cc1ccc(OP(=O)(Nc2ccccn2)Oc2ccc(C)cc2)cc1 was tested. Which inhibition did it give?
Answer: inactive: 13%

Question: With CC(=O)NC(SC(=S)N(CC(C)C)CC(C)C)C(Cl)(Cl)Cl (centres undefined) as the molecule, how does the inhibition read?
Answer: inactive: 29%

Question: COC(=O)c1cc2c(s1)N=C(c1ccccc1)N(C)P2(=O)N1CCOCC1 (centres undefined) was tested. Which inhibition did it give?
Answer: inactive: -1.42%

Question: How did the inhibition turn out when CCC(=O)N1C2C3N(C(=O)CC)C1C1N(C(=O)CC)C(C(N1C(=O)CC)N3C(=O)CC)N2C(=O)CC was run?
Answer: inactive: 3.63%

Question: For O=C(OC1CN2CCC1CC2)c1ccccc1 (centres undefined), which inhibition is on record?
Answer: inactive: 3.95%

Question: Which inhibition does the source give for CN(C)C(=O)Oc1noc2ccccc12 here?
Answer: inactive: 9.34%

Question: Which inhibition does the source give for O=c1c2cc([N+](=O)[O-])ccc2[nH]c2c([N+](=O)[O-])cc([N+](=O)[O-])cc12 here?
Answer: inactive: 25.3%

Question: Cc1ccccc1OP(=O)(Nc1ccccn1)Oc1ccccc1C was tested. Which inhibition did it give?
Answer: inactive: 6.18%

Question: For CCOc1ccc(C2=NCC(CBr)S2)cc1 (centres undefined), which inhibition is on record?
Answer: inactive: 5.97%

Question: Which inhibition does the source give for O=P1(Nc2nc3ccc(Cl)cc3s2)COc2ccccc2O1 (centres undefined) here?
Answer: inactive: -1.38%

Question: CC(C)(C)C(=O)NC(Sc1ccccc1)C(Cl)(Cl)Cl (centres undefined) was tested. Which inhibition did it give?
Answer: inactive: 3.61%

Question: CC(=O)c1ccc(N2CC2c2ccncc2)cc1 (centres undefined) was tested. Which inhibition did it give?
Answer: inactive: 17.4%

Question: How did the inhibition turn out when C[C@@H]1C=CCP(=O)(Oc2ccccc2)O1 (some centres undefined) was run?
Answer: inactive: 3.73%

Question: For C[C@H]1OP(=O)(Oc2ccccc2)C[C@@H]2O[C@@H]21 (some centres undefined), which inhibition is on record?
Answer: inactive: 21%

Question: With CC(=O)Nc1ccc([As](=O)(O)O)c(O)c1 as the molecule, how does the inhibition read?
Answer: inactive: 6.28%

Question: How did the inhibition turn out when O=P(Nc1nccs1)(c1ccccc1)c1ccccc1 was run?
Answer: inactive: 12.5%

Question: For CC(C)C(=O)NC(Sc1ccccc1)C(Cl)(Cl)Cl (centres undefined), which inhibition is on record?
Answer: inactive: 17.1%

Question: With c1nnnn1CCn1cnnn1 as the molecule, how does the inhibition read?
Answer: inactive: 3.1%

Question: Which inhibition does the source give for CN(C)C1(CNC(=O)c2ccc(Cl)c(S(N)(=O)=O)c2)CCCCC1 here?
Answer: inactive: 9.99%

Question: With O=P(Nc1ccccn1)(c1ccc(Br)cc1)c1ccc(Br)cc1 as the molecule, how does the inhibition read?
Answer: inactive: 3.39%

Question: For C[C@H]1OP(=O)(Oc2ccccc2)[C@H](O)[C@H](O)[C@H]1N=[N+]=[N-] (some centres undefined), which inhibition is on record?
Answer: inactive: 9.03%

Question: O=P(Nc1nc2ccccc2s1)(c1ccccc1)c1ccccc1 was tested. Which inhibition did it give?
Answer: inactive: 6.53%

Question: How did the inhibition turn out when O=[N+]([O-])c1ncn(CCn2cnc([N+](=O)[O-])n2)n1 was run?
Answer: inactive: 14.9%

Question: How did the inhibition turn out when CC(=O)NC(SC(=S)N(C)C)C(Cl)(Cl)Cl (centres undefined) was run?
Answer: inactive: 3.39%

Question: With O=[N+]([O-])c1ccc(O)c(/C=N/Nc2ccc([N+](=O)[O-])cc2[N+](=O)[O-])c1 as the molecule, how does the inhibition read?
Answer: inactive: 10.5%

Question: Which inhibition does the source give for O=[As](O)(c1ccccc1)c1ccc(O)cc1 here?
Answer: inactive: 0.21%

Question: Nc1ccc([As](=O)(O)c2ccc([N+](=O)[O-])cc2)cc1 was tested. Which inhibition did it give?
Answer: inactive: 12.3%

Question: How did the inhibition turn out when C(Cc1nn[nH]n1)Cc1nn[nH]n1 was run?
Answer: inactive: 8.99%

Question: For O=C(OC1CN2CCC1CC2)c1cccc(Cl)c1 (centres undefined), which inhibition is on record?
Answer: inactive: 2.79%
